Source: article PMC12767058, “HERV‐K TM Subunit Elicits CD8^+ T Cell Anergy and Tumor Immune Evasion via Targeting CD3 Coreceptor ε in AML and PDAC” (Advanced Science, 2025)

Target: T1, purified recombinant glycosylated K-TM protein (human, UniProt Q69384 466-699, glycosylated)
T1 construct: K-TM subunit of HERV-K Env; One partner of the BLI was biotinylated and held on an SA chip; source: Hek293T cells (eukaryotic expression system), purified
T1 sequence: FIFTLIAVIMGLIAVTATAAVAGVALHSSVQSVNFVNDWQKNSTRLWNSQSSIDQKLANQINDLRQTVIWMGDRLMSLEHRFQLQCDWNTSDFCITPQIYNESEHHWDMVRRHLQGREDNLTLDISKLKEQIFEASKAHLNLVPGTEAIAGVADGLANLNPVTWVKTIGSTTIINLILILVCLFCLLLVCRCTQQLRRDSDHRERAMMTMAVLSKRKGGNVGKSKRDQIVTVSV
Experiment: BLI; Octet R8; one protein biotinylated and immobilised on an SA chip (which one is not said), the other in twofold dilutions in PBST; association 200 s, dissociation 300 s
Conditions: both partners purified

B1: glycosylated CD3ε protein (recombinant) (receptor)
chain: DGNEEMGGITQTPYKVSISGTTVILTCPQYPGSEILWQHNDKNIGGDEDDKNIGSDEDHLSLKEFSELEQSGYYVCYPRGSKPEDANFYLYLRARVCENCMEMDVMSVATIVIVDICITGGLLLLVYYWSKNRKAKAKPVTRGAGAGGRQRGQNKERPPPVPNPDYEPIRKGQRDLYSGLNQRRI
modifications: glycosylated
notes: CD3ε; nothing is said of the recombinant protein itself; source: eukaryotic expression system, purified
Kd: 1.83 nM
